PubChem BioAssay AID1259414 – Drosophila RNAi Screening Center, 2018
The screen tested about 24,000 reagents; below is an unselected part of those with a known target gene and a result. Of all reagents, about 1,210 (5%) were called active. 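Inactive calls also include excluded dsRNAs with several or no targets, genes unexpressed in JW18, and well A1, regardless of score.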 A number with no mark means an inactive call. Names joined by + are all predicted targets of the reagent.

Test: 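Genome-wide screen for host control of endosymbiont load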 (primary screen)
System: Drosophila JW18 cells infected with Wolbachia
Knock-down reagent: long dsRNA against Drosophila genes, 0.25 µg dsRNA per well of a 384-well plate
Time to read-out: 5 days
Conditions: cells persistently infected with Wolbachia before knock-down; no added drug
Measured: 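Imaged fluorescence in situ signal for Wolbachia 23S rRNA per DAPI-counted host cell, given as a robust z-score within each plate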
Scale: Wolbachia per cell robust z: higher = more Wolbachia per host cell than the plate typical
Hit rule: 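Hit when robust z is 1.5 or more, or -1.5 or less, in at least two of three replicates; excludes dsRNAs with several or no targets, genes not expressed in JW18 and well A1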

{"gene": "Cp18 (Chorion protein 18)", "dsRNA": "DRSC11120", "Wolbachia per cell robust z, rep 1": -4.13, "Wolbachia per cell robust z, rep 2": 0.127, "Wolbachia per cell robust z, rep 3": -0.869}
{"gene": "dl (dorsal)", "dsRNA": "DRSC03521", "Wolbachia per cell robust z, rep 1": -1.19, "Wolbachia per cell robust z, rep 2": 0.78, "Wolbachia per cell robust z, rep 3": -0.193}
{"gene": "dl (dorsal)", "dsRNA": "DRSC29023", "Wolbachia per cell robust z, rep 1": 0.791, "Wolbachia per cell robust z, rep 2": 1.03, "Wolbachia per cell robust z, rep 3": 0.795}
{"gene": "dl (dorsal)", "dsRNA": "DRSC40753", "Wolbachia per cell robust z, rep 1": -0.247, "Wolbachia per cell robust z, rep 2": -2.86, "Wolbachia per cell robust z, rep 3": -0.379}
{"gene": "pst (pastrel)", "dsRNA": "DRSC11003", "Wolbachia per cell robust z, rep 1": 1.15, "Wolbachia per cell robust z, rep 2": -5.62, "Wolbachia per cell robust z, rep 3": 0.661}
{"gene": "CG11248", "dsRNA": "DRSC11644", "Wolbachia per cell robust z, rep 1": -0.406, "Wolbachia per cell robust z, rep 2": 0.499, "Wolbachia per cell robust z, rep 3": -0.134}
{"gene": "Gr98b (Gustatory receptor 98b)", "dsRNA": "DRSC21675", "Wolbachia per cell robust z, rep 1": -0.896, "Wolbachia per cell robust z, rep 2": -0.259, "Wolbachia per cell robust z, rep 3": -0.333}
{"gene": "CG14384", "dsRNA": "DRSC14842", "Wolbachia per cell robust z, rep 1": -0.673, "Wolbachia per cell robust z, rep 2": -0.148, "Wolbachia per cell robust z, rep 3": 0.425}
{"gene": "CG9928", "dsRNA": "DRSC03274", "Wolbachia per cell robust z, rep 1": -4.43, "Wolbachia per cell robust z, rep 2": -0.274, "Wolbachia per cell robust z, rep 3": -0.123}
{"gene": "CG17746", "dsRNA": "DRSC08521", "Wolbachia per cell robust z, rep 1": 0.496, "Wolbachia per cell robust z, rep 2": -0.518, "Wolbachia per cell robust z, rep 3": 0.968}
{"gene": "CG17746", "dsRNA": "DRSC23333", "Wolbachia per cell robust z, rep 1": -1.82, "Wolbachia per cell robust z, rep 2": -0.651, "Wolbachia per cell robust z, rep 3": -0.053}
{"gene": "lncRNA:CR43250 (long non-coding RNA:CR43250)", "dsRNA": "DRSC40516", "Wolbachia per cell robust z, rep 1": 0.713, "Wolbachia per cell robust z, rep 2": 0.642, "Wolbachia per cell robust z, rep 3": 0.952}
{"gene": "Cpr66Cb (Cuticular protein 66Cb)", "dsRNA": "DRSC10769", "Wolbachia per cell robust z, rep 1": -0.171, "Wolbachia per cell robust z, rep 2": 0.302, "Wolbachia per cell robust z, rep 3": 1.44}
{"gene": "CG15534", "dsRNA": "DRSC15070", "Wolbachia per cell robust z, rep 1": -0.745, "Wolbachia per cell robust z, rep 2": 1.13, "Wolbachia per cell robust z, rep 3": 0.0374}
{"gene": "CG15534", "dsRNA": "DRSC26433", "Wolbachia per cell robust z, rep 1": 0.528, "Wolbachia per cell robust z, rep 2": 1.92, "Wolbachia per cell robust z, rep 3": 0.978}
{"gene": "Ccn", "dsRNA": "DRSC09504", "Wolbachia per cell robust z, rep 1": -0.839, "Wolbachia per cell robust z, rep 2": -0.867, "Wolbachia per cell robust z, rep 3": -2.21}
{"gene": "Ccn", "dsRNA": "DRSC09506", "Wolbachia per cell robust z, rep 1": -1.47, "Wolbachia per cell robust z, rep 2": 0.0907, "Wolbachia per cell robust z, rep 3": -0.914}
{"gene": "Ccn", "dsRNA": "DRSC10062", "Wolbachia per cell robust z, rep 1": -2.69, "Wolbachia per cell robust z, rep 2": -0.572, "Wolbachia per cell robust z, rep 3": 0.546}
{"gene": "Ccn", "dsRNA": "DRSC10063", "Wolbachia per cell robust z, rep 1": -0.323, "Wolbachia per cell robust z, rep 2": -0.828, "Wolbachia per cell robust z, rep 3": -1.16}
{"gene": "Chi (Chip)", "dsRNA": "DRSC04602", "Wolbachia per cell robust z, rep 1": -0.948, "Wolbachia per cell robust z, rep 2": 1.08, "Wolbachia per cell robust z, rep 3": -0.948}
{"gene": "Chi (Chip)", "dsRNA": "DRSC28484", "Wolbachia per cell robust z, rep 1": -1.63, "Wolbachia per cell robust z, rep 2": 0.496, "Wolbachia per cell robust z, rep 3": -0.447}
{"gene": "Sfp24C1 (Seminal fluid protein 24C1)", "dsRNA": "DRSC40634", "Wolbachia per cell robust z, rep 1": 0.228, "Wolbachia per cell robust z, rep 2": 0.808, "Wolbachia per cell robust z, rep 3": -0.576}
{"gene": "Boh1 (Buddy of Hmr 1)", "dsRNA": "DRSC14487", "Wolbachia per cell robust z, rep 1": -0.0323, "Wolbachia per cell robust z, rep 2": -0.564, "Wolbachia per cell robust z, rep 3": 1.03}
{"gene": "kuz (kuzbanian)", "dsRNA": "DRSC03555", "Wolbachia per cell robust z, rep 1": 1.15, "Wolbachia per cell robust z, rep 2": 1.24, "Wolbachia per cell robust z, rep 3": 0.411}
{"gene": "kuz (kuzbanian)", "dsRNA": "DRSC40871", "Wolbachia per cell robust z, rep 1": 0.235, "Wolbachia per cell robust z, rep 2": 1.16, "Wolbachia per cell robust z, rep 3": 0.751}
{"gene": "Myc", "dsRNA": "DRSC23360", "Wolbachia per cell robust z, rep 1": 0.351, "Wolbachia per cell robust z, rep 2": -0.592, "Wolbachia per cell robust z, rep 3": 0.269}
{"gene": "Myc", "dsRNA": "DRSC40847", "Wolbachia per cell robust z, rep 1": 0.604, "Wolbachia per cell robust z, rep 2": 0.4, "Wolbachia per cell robust z, rep 3": -0.888}
{"gene": "Ir7d (Ionotropic receptor 7d)", "dsRNA": "DRSC18010", "Wolbachia per cell robust z, rep 1": 0.216, "Wolbachia per cell robust z, rep 2": -0.566, "Wolbachia per cell robust z, rep 3": -3.07}
{"gene": "Syn2 (Syntrophin-like 2)", "dsRNA": "DRSC06902", "Wolbachia per cell robust z, rep 1": "-4.67 (active)", "Wolbachia per cell robust z, rep 2": -0.67, "Wolbachia per cell robust z, rep 3": -2.27}
{"gene": "SkpF + CG43795", "dsRNA": "DRSC04120", "Wolbachia per cell robust z, rep 1": -3.91, "Wolbachia per cell robust z, rep 2": 0.63, "Wolbachia per cell robust z, rep 3": 0.613}

Part of the list above, reformatted.
CG15534 [DRSC15070]
- Wolbachia per cell robust z, rep 1: -0.745
- Wolbachia per cell robust z, rep 2: 1.13
- Wolbachia per cell robust z, rep 3: 0.0374

CG15534 [DRSC26433]
- Wolbachia per cell robust z, rep 1: 0.528
- Wolbachia per cell robust z, rep 2: 1.92
- Wolbachia per cell robust z, rep 3: 0.978
